Pooled drug test results. Numbers come from NIAID ChemDB, via PubChem.

All rows: cytotoxicity tests; cell line: Huh7; measure: CC50

CCn: concentration that lowers growth or viability of the cells by n%.

smiles	method	value
CC(=O)Nc1ccc(-c2ccc3nc(N)nc(N4CCN(C(C)=O)CC4)c3c2)cc1		>20 µM
Nc1ccc(CNC(=O)c2nc3ccccc3c(=O)n2O)cc1	MTT	>250 µM
CCC[C@H](NC(=O)[C@@H]1[C@H]2CCC[C@H]2CN1C(=O)[C@@H](NC(=O)[C@@H](NC(=O)c1cnccn1)C1CCCCC1)C(C)(C)C)C(=O)C(=O)NC1CC1	MTT	37 µM
CC1=CN(c2ccc([N+](=O)[O-])cc2)[C@@H](c2ccc(C(F)(F)F)cc2)[C@@H](C)C1=O	MTT	>50 µM
CCOC(=O)c1c(CS(=O)(=O)c2ccccc2)n(C)c2cc(-c3cccnc3)c(O)c(CN(C)C)c12	ATP	34 µM
COc1cc(Cc2cnc(/N=C3\C(=O)N(CN4CCN(C)CC4)c4ccc(Br)cc43)nc2N)cc(OC)c1OC		>50 µg/mL
N#Cc1c(Nc2ccnc(Cl)c2)s[nH]c1=O		>50 µM
CCOc1nc(N)nc2ccc(-c3ccc(NC(=O)C4CC4)cc3)nc12		>20 µM
CCCCCCCC(=O)CCCCCC/C=C/[C@H](C(=O)N[C@@H](Cc1ccc(OCC#CCC#CC(C)(C)C)cc1)C(=O)O)[C@@](O)(CC(=O)O)C(=O)O		>1 µM
COc1cc(Cc2cnc(/N=C3\C(=O)N(CN4CCN(Cc5ccccc5)CC4)c4ccc(Br)cc43)nc2N)cc(OC)c1OC		>50 µg/mL
O=C(NCc1ccc(Cl)c(Cl)c1)c1nc2ccccc2c(=O)n1O	MTT	202.1 µM
Cc1ccc(Sc2ccc(O)cc2)c(Nc2ncnc3nc(C4CC4)ccc23)c1	MTT	17.4 µM
CCCCCCC/C(CCCCCC/C=C/[C@H](C(=O)N[C@@H](Cc1ccc(OCC=C(C)C)cc1)C(=O)O)[C@@](O)(CC(=O)O)C(=O)O)=N\OCCN		>22 µM
CCOC(=O)c1c(CSc2cccs2)n(C)c2cc(Br)c3c(c12)CN(C)CO3	ATP	20.1 µM
O=C(NCc1ccc(F)cc1)c1nc2ccccc2c(=O)n1O	MTT	194.1 µM
C#CCOc1ccc(C[C@H](NC(=O)[C@@H](/C=C/CCCCCCC(=O)CCCCCCC)[C@@](O)(CC(=O)O)C(=O)O)C(=O)O)cc1		>5 µM
COC1=CC(=O)C[C@@H](C)[C@]12Oc1c(Cl)c(OC)cc(OC)c1C2=O		218 µM
CCCCCCCC(=O)CCCCCC/C=C/[C@H](C(=O)N[C@@H](Cc1ccc(-c2cccc(OC)n2)cc1)C(=O)O)[C@@](O)(CC(=O)O)C(=O)O		>1 µM
Cc1ccc(Sc2ccc(O)cc2)c(Nc2ncnc3nc(C4CCC4)ccc23)c1	MTT	31.8 µM
CCCNc1ncnc2ccc(-c3ccc(F)cc3)cc12		>20 µM
COc1cc(Cc2cnc(/N=C3\C(=O)N(CN4CCN(c5cccc(Cl)c5)CC4)c4ccc(Br)cc43)nc2N)cc(OC)c1OC		>50 µg/mL
N#Cc1c(Nc2ccc(I)c(Cl)c2)s[nH]c1=O		>50 µM
CCC[C@H](NC(=O)[C@@H]1C2CCCC2CN1C(=O)[C@@H](NC(=O)[C@@H](NC(=O)c1cnccn1)C1CCCCC1)C(C)(C)C)C(=O)C(=O)N[C@@H](C)c1ccncc1		73.6 µM
CCCCNC(=O)c1ccc(-c2ccc3nc(N)nc(OC(C)C)c3n2)cc1		>20 µM
COc1ccc(N2CCN(CN3C(=O)/C(=N\c4ncc(Cc5cc(OC)c(OC)c(OC)c5)c(N)n4)c4cc(Br)ccc43)CC2)cc1		>50 µg/mL
N#Cc1cccc(S(=O)(=O)N(Cc2c(Cl)cccc2Cl)c2cccc(C(=O)NC3CCC3)c2)c1	absorbance	26 µM
Cc1ccc(Sc2ccccc2)c(Nc2ncnc3nc(C)ccc23)c1	MTT	22.2 µM
COc1cc(Cc2cnc(/N=C3\C(=O)N(CN4CCN(c5cc6c(cc5F)c(=O)c(C(=O)O)cn6C5CC5)CC4)c4ccc(Br)cc43)nc2N)cc(OC)c1OC		>50 µg/mL
COc1cc(C2C3CO[C@]4(O)C[C@H]2C=C([C@H]2Oc5cc(O)cc(O)c5C(=O)[C@@H]2O)[C@H]34)ccc1O	absorbance	>250 µM
N#Cc1c(Nc2ccc(Cl)c(Cl)c2)s[nH]c1=O		>50 µM
CC(=O)Nc1ccc(Sc2ccc(C)cc2Nc2ncnc3nc(C)ccc23)cc1	MTT	>50 µM
CCN(CC)CN1C(=O)/C(=N\c2ncc(Cc3cc(OC)c(OC)c(OC)c3)c(N)n2)c2cc(Br)ccc21		>50 µg/mL
CCOC(=O)c1c(CSc2ccccc2)n(C)c2cc(C#N)c(O)c(CN(N3CCC(CO)CC3)N3CCC(CO)CC3)c12	ATP	>100 µM
CCOc1nc(N)nc2ccc(-c3ccc(NC(=O)[C@H](C)N)c(OC)c3)nc12		>20 µM
Nc1nc(Nc2ccccc2)c2cc(-c3ccc(F)cc3)ccc2n1		<10 µM
CC(C)Oc1nc(N)nc2ccc(-c3ccc(C(=O)NC4CCCC4)cc3)nc12		>20 µM
O=C(NCc1ccccc1Cl)c1nc2ccccc2c(=O)n1O	MTT	224.8 µM
COc1cc(C2Oc3c(O)cc([C@H]4Oc5cc(O)cc(O)c5C(=O)[C@@H]4O)cc3[C@H]2CO)ccc1O	absorbance	>200 µM
N#Cc1c(Nc2ccc(S(=O)(=O)Nc3ccccc3)cc2)s[nH]c1=O		>50 µM
CCCC(NC(=O)[C@@H]1C2CCCC2CN1C(=O)[C@@H](NC(=O)[C@@H](NC(=O)c1cnccn1)C1CCCCC1)C(C)(C)C)C(=O)C(=O)NC1CC1		86.5 µM
CCCC(NC(=O)[C@@H]1C[C@@H](OC(=O)N2CCc3ccccc3C2)CN1C(=O)[C@H](NC(=O)[C@H](NC(=O)c1cnccn1)C(C)C)C(C)C)C(=O)C(=O)N[C@@H](C)c1ccccc1		16 µM
CCC[C@H](NC(=O)[C@@H]1[C@H]2CCC[C@H]2CN1C(=O)[C@@H](NC(=O)[C@@H](NC(=O)c1cnccn1)C1CCCCC1)C(C)(C)C)C(=O)C(=O)N[C@@H](C)C1CCCCC1		>100 µM
CCOc1nc(N)nc2ccc(-c3ccc(-c4nnc(C)o4)cc3)nc12		>20 µM
CCC[C@H](NC(=O)[C@@H]1[C@H]2CCC[C@H]2CN1C(=O)[C@@H](NC(=O)[C@@H](NC(=O)c1cnccn1)C1CCCCC1)C(C)(C)C)C(=O)C(=O)N[C@@H](C)Cc1ccccc1		34.4 µM
C=C1C(=O)O[C@@H]2[C@H]1CC[C@H](COC(=O)/C(C)=C\C)[C@]1(O)CCC(=O)[C@@]21C		>2 µM
CC(=O)Nc1ccc(Sc2ccc(C)cc2Nc2ncnc3nc(CC(C)C)ccc23)cc1	MTT	38.5 µM
CCOc1nc(N)nc2ccc(-c3ccc(NC(=O)C(C)(C)N)cc3)nc12		>20 µM
COc1cc(Cc2cnc(/N=C3\C(=O)N(CN4CCOCC4)c4ccc(Br)cc43)nc2N)cc(OC)c1OC		>50 µg/mL
N#Cc1c(Nc2cc(Cl)nc(Cl)n2)s[nH]c1=O		<50 µM
CCCCN(CCCC)CN1C(=O)/C(=N\c2ncc(Cc3cc(OC)c(OC)c(OC)c3)c(N)n2)c2cc(Br)ccc21		<50 µg/mL
CC(=O)Nc1ccc(-c2ccc3nc(N)nc(N4CCCCC4)c3c2)cc1		10–20 µM
CCCC(NC(=O)[C@@H]1C2CCCC2CN1C(=O)[C@@H](NC(=O)[C@@H](NC(=O)c1cnccn1)[C@@H](C)CC)C(C)(C)C)C(=O)C(=O)NC1CC1		>100 µM
Nc1ncnc2c1c(C#Cc1cccc(-c3ccccn3)n1)cn2[C@H]1C[C@H](O)[C@@H](CO)O1		>100 µM
Cc1ccccc1COC(=O)[C@@H](NP(=O)(OC[C@H]1O[C@@H](n2cnc3c(=O)[nH]c(N)nc32)[C@](C)(O)[C@@H]1O)Oc1cccc2ccccc12)C(C)C	ATP	100 µM
Nc1ncnc2c1c(-c1ccc(-c3ccc4ccc5cccnc5c4n3)cc1)cn2[C@H]1C[C@H](O)[C@@H](CO)O1		1 µM
N#Cc1c(Nc2ccc(F)cc2)s[nH]c1=O		>50 µM
CCCCCCCC(=O)CCCCCC/C=C/[C@H](C(=O)N[C@@H](Cc1ccc(Oc2ccccc2F)cc1)C(=O)O)[C@@](O)(CC(=O)O)C(=O)O		>1 µM
N#Cc1c(NCC2CC2)s[nH]c1=O		>50 µM
CC(=O)Nc1ccc(Sc2ccc(C)cc2Nc2ncnc3nc(C(C)C)ccc23)cc1	MTT	28.8 µM
Nc1ccn([C@@H]2O[C@H](CO)[C@@H](O)[C@H]2F)c(=O)n1		>100 µM
CCCC(NC(=O)[C@@H]1[C@H]2CCC[C@H]2CN1C(=O)[C@@H](NC(=O)[C@@H](NC(=O)c1cnccn1)C(C)(C)C)C(C)(C)C)C(=O)C(=O)NC1CC1		>100 µM
Nc1nc(O[C@H]2CCOC2)c2nc(-c3ccc(C(=O)NCCN4CCOCC4)cc3)ccc2n1		>20 µM
C=C1C(=O)O[C@@H]2[C@H]1CC[C@H](COC(=O)CCC)[C@]1(O)CCC(=O)[C@@]21C		>2 µM
Nc1nc(O[C@@H]2CCOC2)c2nc(-c3ccc(NC(=O)[C@H]4CCNC4)cc3)ccc2n1		>20 µM
O=C(NCc1ccc(N2CCNC2=O)cc1)Nc1nc2c(s1)-c1c(cnn1-c1ccccc1C(F)(F)F)C2		1 µM

The last 9 rows once more:

smiles,method,value
CCCCCCCC(=O)CCCCCC/C=C/[C@H](C(=O)N[C@@H](Cc1ccc(Oc2ccccc2F)cc1)C(=O)O)[C@@](O)(CC(=O)O)C(=O)O,,>1 µM
N#Cc1c(NCC2CC2)s[nH]c1=O,,>50 µM
CC(=O)Nc1ccc(Sc2ccc(C)cc2Nc2ncnc3nc(C(C)C)ccc23)cc1,MTT,28.8 µM
Nc1ccn([C@@H]2O[C@H](CO)[C@@H](O)[C@H]2F)c(=O)n1,,>100 µM
CCCC(NC(=O)[C@@H]1[C@H]2CCC[C@H]2CN1C(=O)[C@@H](NC(=O)[C@@H](NC(=O)c1cnccn1)C(C)(C)C)C(C)(C)C)C(=O)C(=O)NC1CC1,,>100 µM
Nc1nc(O[C@H]2CCOC2)c2nc(-c3ccc(C(=O)NCCN4CCOCC4)cc3)ccc2n1,,>20 µM
C=C1C(=O)O[C@@H]2[C@H]1CC[C@H](COC(=O)CCC)[C@]1(O)CCC(=O)[C@@]21C,,>2 µM
Nc1nc(O[C@@H]2CCOC2)c2nc(-c3ccc(NC(=O)[C@H]4CCNC4)cc3)ccc2n1,,>20 µM
O=C(NCc1ccc(N2CCNC2=O)cc1)Nc1nc2c(s1)-c1c(cnn1-c1ccccc1C(F)(F)F)C2,,1 µM

An empty or dashed field is not shown. Rows are shuffled and stem from different studies. Two numbers with a dash give a range or band.